The text below walks through data of doi:10.1101/2022.06.27.497816 (bioRxiv, 2022).

Protein sequences, listed by entry. Tags and fused reporters are not part of them. Lines headed by an entry give the natural chain unless they say otherwise; changes in a name come on top.
UniProt Q9Y530: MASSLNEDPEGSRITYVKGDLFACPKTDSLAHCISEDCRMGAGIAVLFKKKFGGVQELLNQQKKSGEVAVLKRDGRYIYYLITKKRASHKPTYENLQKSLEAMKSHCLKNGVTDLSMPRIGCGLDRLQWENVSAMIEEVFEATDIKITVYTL

For this experiment, the target named is human macrodomain TARG1 (human, UniProt Q9Y530 1-152). Description: AlphaScreen or HTRF. Conditions: both partners purified.

With ARTKQTARKS [ADPr-conjugated biotin peptide ARTK(Bio)QTARK(Aoa-RADP)S], the binding result is recorded as “binds”.
